Anti-infective test results gathered from many reports (values: NIAID ChemDB through PubChem).

All rows: growth or infection tests; organism: Hepatitis C virus; read by: replicon; read-out: EC50

ECn is the concentration giving n% inhibition of infection, replication or growth.

O=C(CC1CCCC1)N/N=C/c1ccccc1OS(=O)(=O)c1ccc(C(F)(F)F)cc1 ; cell line: Huh7 ; result: <5 µM
COC(=O)/C=C/c1ccc(NC(=O)C2(NC(=O)c3ccc4c(C5CCCCC5)c5n(c4c3)CCCn3cccc3-5)CCCC2)cc1 ; cell line: Huh7 ; result: 1–10 µM
O=C(Nc1ccc(C2SC(=Nc3ccc(N4CCOCC4)cc3)N(Cc3ccccn3)C2=O)cc1)[C@H]1CCCN1S(=O)(=O)Cc1ccccc1 ; cell line: Huh7 ; result: 1–5 µM
O=C(Cc1ccccc1)N/N=C/c1ccccc1OS(=O)(=O)c1cccc(Cl)c1 ; cell line: Huh7 ; result: >50 µM
CCCC(NC(=O)C1C2CCCC2CN1C(=O)[C@@H](N1CCCCC1)C(C)(C)C)C(=O)C(=O)NC1CC1 ; strain: 1b ; result: <100 µM
CC(C)(C)OC(=O)N1CCn2c(c(C3CCCCC3)c3ccc(C(=O)O)cc32)-c2ccccc21 ; cell line: Huh7 ; result: 1–10 µM
O=C(Cc1ccc(F)cc1)N/N=C/c1ccccc1OS(=O)(=O)c1ccc(C(F)(F)F)cc1 ; cell line: Huh7 ; result: <5 µM
C=CC1CC1(NC(=O)[C@@H]1C[C@@H](Oc2cc(-c3ccccc3)nc3cc(OC)ccc23)CN1C(=O)[C@H](c1ccccc1)N1CCCCC1)C(=O)O ; strain: 1b ; result: <100 µM
COc1ccc(C(F)(F)F)cc1N=C1SC(c2ccc(NC(=O)[C@H]3CCCN3C(=O)OCc3ccccc3)cc2)C(=O)N1Cc1ccco1 ; cell line: Huh7 ; result: 0.1–1 µM
COc1ccc(OC)c(S(=O)(=O)Oc2ccccc2/C=N/NC(=O)Cc2ccccc2)c1 ; cell line: Huh7 ; result: >50 µM
C=CC1CC1(NC(=O)[C@@H]1C[C@@H](Oc2cc(-c3ccccc3)nc3cc(OC)ccc23)CN1C(=O)[C@H](C)N1CCCCC1)C(=O)O ; strain: 1b ; result: <100 µM
O=C(O)/C=C/c1ccc(NC(=O)C2(NC(=O)c3ccc4c(C5CCCCC5)c5n(c4c3)CCCc3cccnc3-5)CCNCC2)cc1 ; cell line: Huh7 ; result: 0.01–1 µM
O=C(Cc1ccc(I)cc1)N/N=C/c1ccccc1OS(=O)(=O)c1ccc(C(F)(F)F)cc1 ; cell line: Huh7 ; result: <5 µM
O=C(O)c1ccc2c(C3CCCCC3)c3n(c2c1)CC(C(=O)NC1CCCC1)Cc1ccccc1-3 ; cell line: Huh7 ; result: 0.01–1 µM
O=C(Nc1ccc(C2SC(=Nc3cccc(F)c3)N(Cc3ccccc3)C2=O)cc1)[C@H]1CCCN1C(=O)OCc1ccccc1 ; cell line: Huh7 ; result: 0.1–1 µM
CCOC(=O)C12CC1/C=C\CCCCC[C@H](N1CCCCC1)C(=O)N1C[C@H](Oc3cc(-c4ccccc4)nc4cc(OC)ccc34)C[C@H]1C(=O)N2 ; strain: 1b ; result: >100 µM
CN1CCN(C(=O)C2Cc3ccccc3-c3c(C4CCCCC4)c4ccc(C(=O)NS(=O)(=O)N(C)C)cc4n3C2)CC1 ; cell line: Huh7 ; result: 0.01–1 µM
CCCC(NC(=O)C1C2CCCC2CN1C(=O)[C@H](C)N1CCCCC1)C(=O)C(=O)NC1CC1 ; strain: 1b ; result: >100 µM
CC(C)N=C1SC(c2ccc(NC(=O)[C@@H](C)NC(=O)C(c3ccccc3)c3ccccc3)cc2)C(=O)N1Cc1ccccn1 ; cell line: Huh7 ; result: <0.1 µM
CCCC(NC(=O)[C@@H]1C[C@@H](OC(=O)N2CCc3ccccc3C2)CN1C(=O)C(C)N1CCCCC1)C(=O)C(=O)NC1CC1 ; strain: 1b ; result: >100 µM
CCc1cccc(N=C2SC(c3ccc(NC(=O)[C@@H](C)NC(=O)OCc4ccccc4)cc3)C(=O)N2Cc2ccco2)c1 ; cell line: Huh7 ; result: 1–5 µM
CC(C)(C)OC(=O)/C=C/c1ccc(NC(=O)C2(NC(=O)c3ccc4c(C5CCCCC5)c5n(c4c3)CC(=O)N5Cc3ccccc3)CCCC2)cc1 ; cell line: Huh7 ; result: >10 µM
N#Cc1cccc(S(=O)(=O)Oc2ccccc2/C=N/NC(=O)Cc2ccccc2)c1 ; cell line: Huh7 ; result: >50 µM
C[C@@H](NC(=O)CCc1ccccc1)C(=O)Nc1ccc(C2SC(=Nc3cccc(F)c3)N(Cc3ccco3)C2=O)cc1 ; cell line: Huh7 ; result: 1–5 µM
CCCC(NC(=O)C1C2CCCC2CN1C(=O)C(c1ccccc1)N1CCCCC1)C(=O)C(=O)NC1CC1 ; strain: 1b ; result: <100 µM
CC(C)N=C1SC(c2ccc(NC(=O)[C@@H](C)NC(=O)Cc3ccccc3)cc2)C(=O)N1Cc1ccccn1 ; cell line: Huh7 ; result: <0.1 µM
CCCc1ccc(S(=O)(=O)Oc2ccccc2/C=N/NC(=O)Cc2cccc(OC)c2)cc1 ; cell line: Huh7 ; result: <5 µM
CCOC(=O)[C@@]12C[C@H]1/C=C\CCCCC[C@H](N1CCCCC1)C(=O)N1C[C@H](Oc3cc(-c4ccccc4)nc4cc(OC)ccc34)C[C@H]1C(=O)N2 ; strain: 1b ; result: <100 µM
O=C(Nc1ccc(C2SC(=Nc3ccc(F)c(Cl)c3)N(Cc3ccco3)C2=O)cc1)[C@H]1CCCN1C(=O)OCc1ccccc1 ; cell line: Huh7 ; result: 1–5 µM
O=C(Cc1ccc(Cl)cc1)N/N=C/c1ccccc1OS(=O)(=O)c1ccc(C(F)(F)F)cc1 ; cell line: Huh7 ; result: <5 µM
CN(Cc1ccc(/C=C\C(=O)O)cc1)S(=O)(=O)NC(=O)c1ccc2c(C3CCCCC3)c3n(c2c1)CC(=O)Nc1ccccc1-3 ; cell line: Huh7 ; result: 1–10 µM
COc1ccc2c(O[C@@H]3C[C@H]4C(=O)NC5(C(=O)O)CC5/C=C\CCCCC[C@H](N5CCCCC5)C(=O)N4C3)cc(-c3ccccc3)nc2c1 ; strain: 1b ; result: <100 µM
CCOc1ccc(CC(=O)N/N=C/c2ccccc2OS(=O)(=O)c2ccc(C(F)(F)F)cc2)cc1 ; cell line: Huh7 ; result: 5–50 µM

A second listing of 3 rows from above:

compound,strain,cell line,result
COc1ccc(C(F)(F)F)cc1N=C1SC(c2ccc(NC(=O)[C@H]3CCCN3C(=O)OCc3ccccc3)cc2)C(=O)N1Cc1ccco1,-,Huh7,0.1–1 µM
CC(C)N=C1SC(c2ccc(NC(=O)[C@@H](C)NC(=O)C(c3ccccc3)c3ccccc3)cc2)C(=O)N1Cc1ccccn1,-,Huh7,<0.1 µM
C[C@@H](NC(=O)CCc1ccccc1)C(=O)Nc1ccc(C2SC(=Nc3cccc(F)c3)N(Cc3ccco3)C2=O)cc1,-,Huh7,1–5 µM

Blank or dashed fields: not listed here. Conditions beyond the fields shown may differ between rows. Two numbers with a dash give a range or band.